Measured values from several laboratories, pooled; numbers as filed in NIAID ChemDB.

Shared fields: tests in culture; species: HIV-1; cell line: PBMC; measure: EC50

ECn: concentration that inhibits the pathogen or its effect by n%. Conditions beyond the fields shown may differ between rows. Blank or dashed fields: not listed here.

| SMILES | strain | mutations | read by | setting | value |
|---|---|---|---|---|---|
| NC(=O)c1cc2c(-c3ccc4c(c3)CCO4)cncc2s1 | 93BR021 |  | p24 / ELISA |  | 0.0488 µM |
| Nc1nc2c(ncn2[C@H]2CO[C@@H](CO)O2)c(=O)[nH]1 | LAI |  | p24 |  | 0.14 µM |
| CC[C@H](C)[C@H](NC(=O)c1ccccc1SSc1ccccc1C(=O)N[C@H](C(=O)O)[C@@H](C)CC)C(=O)O | BR /93/020 |  | p24 / RT activity |  | 7.8 µM |
| Cc1cn([C@H]2CC[C@@H](CO)O2)c(=O)[nH]c1=O | LAV |  | RT activity |  | 0.17 µM |
| COc1c(C)c2c(c(O)c1C/C=C(\C)CCC(=O)O)C(=O)OC2 | IIIB |  | p24 |  | 0.11 µM |
| O=c1ccn([C@H]2CC[C@@H](CO)O2)c(=O)[nH]1 | LAV |  | RT activity |  | 96.8 µM |
| CCCCN1C(=O)[C@@H]([C@H](O)C2CCCCC2)NC(=O)C12CCN(Cc1ccc(Oc3ccc(C(=O)O)cc3)cc1)CC2 | CC1/85 maraviroc-resistant isolate |  | p24 / ELISA |  | 0.3243 µM |
| CN[C@@H]1[C@H](O[C@@H]2OC[C@@H](O)[C@H](O)[C@H]2O)[C@@H](O)[C@H](O[C@H]2c3cc(C)c(C(=O)N[C@H](C)C(=O)O)c(O)c3-c3c(cc4c(c3O)C(=O)c3cc(OC)cc(O)c3C4=O)[C@@H]2O)O[C@@H]1C | ID12 R5 CLADE E |  | p24 |  | 3.4 µg/mL |
| CCCCCc1ccc(-c2cc3cn(C/C=C/C(O)CO)c(=O)nc3o2)cc1 | LAI |  | RT activity |  | 36.7 µM |
| CC(C)[C@H](NC(=O)c1ccc2ccccc2n1)C(=O)N[C@@H](Cc1ccccc1)[C@H](O)CN1CC[C@@H](OCc2ccncc2)C[C@H]1C(=O)NC(C)(C)C | UHC-1 |  | p24 |  | 0.004 µM |
| CC(C)CN(C[C@@H](O)[C@H](Cc1ccccc1)NC(=O)O[C@H]1CCOC1)S(=O)(=O)c1ccc(N)cc1 | Ba-L Laboratory isolate |  | p24 |  | 0.023 µM |
| S=C(NCCc1ccccn1)Nc1ccc(Br)cn1 | IIIB |  |  |  | 0.007 µM |
| Nc1nc2c(ncn2[C@H]2C=C[C@@H](CO)O2)c(=O)[nH]1 | LAV |  | RT activity |  | >100 µM |
| NC(=O)c1ncn([C@@H]2O[C@H](CO)[C@@H](O)[C@H]2O)n1 | LAI |  | p24 |  | 20.5 µM |
| Nc1nc(N)c2ncn([C@H]3CO[C@@H](CO)O3)c2n1 | LAI |  | p24 |  | 4 µM |
| Nc1nc2c(ncn2COCCO)c(=O)[nH]1 | LAI |  | RT activity |  | >100 µM |
| Nc1ccn([C@@H]2CS[C@H](CO)O2)c(=O)n1 | 52534-2 NRTI resistant recombinant | RT-M41L T69ins L74V M184V L210W T215Y | p24 |  | >10 µM |
| Nc1ncnc2c1ncn2[C@H]1CC[C@@H](CO)O1 | LAV |  | RT activity |  | 0.91 µM |
| COC(=O)[C@H](C)NP(=O)(OC[C@@H]1C=C[C@H](n2cc(C)c(=O)[nH]c2=O)O1)Oc1ccc(Br)cc1 | S762-4 NRTI resistant | RT-M41L T215Y | p24 |  | 0.008 µM |
| Nc1nc(=O)n([C@H]2CO[C@@H](CO)S2)cc1F | HXB2D |  | p24 |  | 3 µM |
| Cc1cn([C@H]2C[C@H](F)[C@@H](COP(=O)(O)O)O2)c(=S)[nH]c1=O |  |  | syncytia |  | 0.5 µM |
| Nc1ccn([C@H]2CC[C@@H](CO)O2)c(=O)n1 | LAV |  | RT activity |  | 0.011 µM |
| Cc1cn([C@H]2C[C@H](N=[N+]=[N-])[C@@H](CO)O2)c(=O)[nH]c1=O | LAI |  | MTT |  | 0.0672 µM |
| O[C@]12C=C(Cc3cc4cc(F)ccc4[nH]3)[C@@H]3CCN(CCCC/C=C\CC1)C[C@@]31C[C@@H]3CCCCCCN3C12 | LAV |  | RT activity |  | 1.1 µM |
| Cc1ccc(-c2ccc3c(c2)C=C(C(=O)Nc2ccc(C[N+](C)(C)C4CCOCC4)cc2)CCC3)cc1 | HHA |  | p24 |  | 0.0032 µM |
| Cc1cnc(CC2=C[C@@]3(O)CC/C=C\CCCCN4CC[C@@H]2[C@]2(C[C@@H]5CCCCCCN5C23)C4)cn1 | LAV |  | RT activity |  | 13.2 µM |
| Cc1cn([C@H]2C[C@H](N=[N+]=[N-])[C@@H](CO)O2)c(=O)[nH]c1=O | D34 |  | p24 |  | ~0.01 µM |
| O=c1ccn([C@H]2C=C[C@@H](CO)O2)c(=O)[nH]1 | LAV |  | RT activity |  | 79.2 µM |
| Nc1nc(=O)n([C@@H]2CO[C@H](CO)S2)cc1F | HXB2D (RT-M184V) | RT-M184V | p24 |  | 9 µM |
| CC(C)=Cc1nc(C)c(Cn2cnc(C(F)(F)C(F)F)c(Oc3cc(C(F)F)cc(C#N)c3C)c2=O)c(=O)[nH]1 |  |  | GFP | pseudotyped | 0.456 µM |
| NC(=O)NO | IIIB |  | p24 |  | >25 µM |
| CCN(c1ncccc1NC(C)(C)C)C1CCN(C(=O)c2cc3cc(NS(C)(=O)=O)ccc3[nH]2)CC1 | Isolate 410 |  | p24 |  | <1.1 µM |
| C#C[C@]1(CO)O[C@@H](n2cnc3c(N)ncnc32)C[C@@H]1O | IVR207-G190Q | RT-G190Q | p24 |  | 0.0022 µM |
| Cc1cn([C@H]2C[C@H](F)[C@@H](CP(=O)(O)O)O2)c(=S)[nH]c1=O |  |  | syncytia |  | 0.5 µM |
| Nc1ncnc2c1ncn2CCOCP(=O)(O)O | LAI |  | MTT |  | 5.2 µM |
| Cc1nc(C)c(Cn2cnc(C(F)(F)C(F)(F)F)c(Oc3cccc(C#N)c3Cl)c2=O)c(=O)[nH]1 |  |  | GFP | pseudotyped | 0.45 µM |
| Cc1cn([C@H]2C[C@H](N=[N+]=[N-])[C@@H](CO)O2)c(=O)[nH]c1=O |  | RT-L74V | p24 |  | 0.003 µM |
| CC(C)(C)NC(=O)[C@@H]1C[C@@H]2CCCC[C@@H]2CN1C[C@@H](O)[C@H](Cc1ccccc1)NC(=O)[C@H](CC(N)=O)NC(=O)OCc1ccccc1 | A012 PRE-AZT |  |  |  | 0.144 µM |
| CCC(C)[C@H](NC(=O)[C@H](C(C)C)[C@@H](O)[C@H](O)[C@H](CC1CCCCC1)NC(=O)CCOCCOc1ccccc1)C(=O)NCc1nc2ccccc2[nH]1 | D34 |  | p24 |  | ~0.001 µM |
| Cc1cn([C@H]2C[C@H](N=[N+]=[N-])[C@@H](CO)O2)c(=O)[nH]c1=O | IIIB A17 (NNRTI-resistant RT K103N Y181C) |  | p24 |  | 0.005 µM |
| Nc1nc(=O)n([C@H]2CS[C@@H](CO)O2)cc1F | LAI | RT M184V FTC-resistant |  |  | 92.4 µM |
| Nc1nc(N)c2ncn([C@H]3CO[C@@H](CO)O3)c2n1 | LAI |  | p24 |  | 4.1 µM |
| CC(C)(C)NC(=O)[C@@H]1C[C@@H]2CCCC[C@@H]2CN1C[C@@H](O)[C@H](Cc1ccccc1)NC(=O)[C@H](CC(N)=O)NC(=O)c1ccc2ccccc2n1 | Clinical isolate | PR-L10I K14R R41K M46L I54V L63P A71V V82A L90M I93L | p24 |  | 0.19 µM |
| CC(C)[C@H](NC(=O)c1ccc2ccccc2n1)C(=O)N[C@@H](Cc1ccccc1)[C@H](O)CN1CC[C@@H](OCc2ccncc2)C[C@H]1C(=O)NC(C)(C)C | DDIR |  | p24 / ELISA / antigen |  | 0.005 µM |
| COC[C@@H](c1ccc(C(F)(F)F)cc1)N1CCN(C2(C)CCN(C(=O)c3c(C)ncnc3C)CC2)C[C@@H]1C |  | G516V M518V F519I | luciferase |  | 0.00019 µM |
| S=C(NCCC1=CCCCC1)Nc1nc2ccccc2s1 | IIIB |  |  |  | 0.02 µM |
| Nc1ccn([C@H]2CC[C@@H](CO)O2)c(=O)n1 |  | RT-T215Y K219Q | p24 |  | 0.09 µM |
| CCCCCc1ccc(-c2cc3cn(COCCO)c(=O)nc3o2)cc1 | LAI |  | RT activity |  | >100 µM |
| Nc1ccn([C@H]2C=C[C@@H](CO)O2)c(=O)n1 | LAV |  | RT activity |  | 0.005 µM |
| Cc1cn([C@H]2CC[C@@H](CO)O2)c(=O)[nH]c1=O | LAV |  | RT activity |  | 0.17 µM |
| CC(=O)c1cn(C/C=C/C(O)CO)c(=O)[nH]c1=O | LAI |  | RT activity |  | >100 µM |
| CC1=C(C(=O)N2CCC(C)(N3CCN(C(c4cccc(F)c4)C4CCN(S(=O)(=O)C5CC5)CC4)[C@@H](C)C3)CC2)C(C)[NH+]([O-])C=N1 | M-tropic |  | p24 |  | 0.008 µM |
| Nc1ccn([C@H]2CC[C@@H](CO)O2)c(=O)n1 | HXB2D |  | p24 |  | 0.041 µM |
| CC(C)(C)NC(=O)[C@@H]1CN(Cc2cccnc2)CCN1C[C@@H](O)C[C@@H](Cc1ccccc1)C(=O)N[C@H]1c2ccccc2C[C@H]1O | Clinical isolate | PR-L10I I15V K20R M36I M46L I54V K55R I62V L63P K70Q V82A L89M | p24 |  | 0.49 µM |
| Cc1cn([C@H]2C[C@H](N=[N+]=[N-])[C@@H](CO)O2)c(=O)[nH]c1=O | BaL |  | p24 |  | 0.003 µM |
| Cc1csc(NC(=S)NCCC2=CCCCC2)n1 | IIIB |  |  |  | 0.008 µM |
| S=C(NCCc1cccs1)Nc1ccc(Br)cn1 | Q252-2 Clinical isolate NRTI-resistant | RT-M41L L210W T215Y | p24 |  | 0.0055 µM |
| O=c1[nH]c(=O)n(COCCO)cc1C#Cc1ccccc1 | LAI |  | RT activity |  | >100 µM |
| CC(C)Nc1cccnc1N1CCN(C(=O)c2cc3cc(NS(C)(=O)=O)ccc3[nH]2)CC1 | HXB2D |  | p24 |  | 0.023 µM |
| CCC(C)[C@H](NC(=O)[C@H](C(C)C)[C@@H](O)[C@H](O)[C@H](CC1CCCCC1)NC(=O)c1ccccc1OCSc1ccccc1)C(=O)NCc1nc2ccccc2[nH]1 | D34 |  | p24 |  | <0.001 µM |
| CC(C)(C)NC(=O)[C@@H]1CN(Cc2cccnc2)CCN1C[C@@H](O)C[C@@H](Cc1ccccc1)C(=O)N[C@H]1c2ccccc2C[C@H]1O | BaL |  | p24 |  | 0.011 µM |
| CC(C)c1nc(CN(C)C(=O)N[C@H](C(=O)N[C@@H](Cc2ccccc2)C[C@H](O)[C@H](Cc2ccccc2)NC(=O)OCc2cncs2)C(C)C)cs1 | Clinical isolate | PR-L10R N37D M46I I62V L63P A71V G73S V77I V82T L90M I93L | p24 |  | >1 µM |
| Nc1nc2c(ncn2[C@H]2OC[C@@](F)(C=CP(=O)(O)O)[C@H]2F)c(=O)[nH]1 | LAI |  | MTT |  | 68 µM |
| O=C1Nc2ccc(Cl)cc2[C@@](C#CC2CC2)(C(F)(F)F)O1 | BaL |  | p24 |  | 0.00004 µM |
| Nc1nc(=O)n([C@@H]2CS[C@H](CO)O2)cc1F | 3TC-resistant (RT M184V) Clinical isolate | RT-M184V | p24 |  | 0.5 µM |
| Oc1ccc(/C=C/c2cc(O)cc(O)c2)cc1 | EJC-X2 |  | p24 | clinical isolate | >10 µM |
| CCC[C@@]1(CCc2ccccc2)CC(O)=C([C@H](CC)c2cccc(NS(=O)(=O)c3ccc(C(F)(F)F)cn3)c2)C(=O)O1 | Isolate 301-1X ritonavir-susceptible | Ritonavir-resistant protease | p24 |  | 0.075 µM |
| Cc1cn([C@H]2C[C@H](N=[N+]=[N-])[C@@H](CO)O2)c(=O)[nH]c1=O |  |  | p24 / RT activity |  | 0.0041 µM |

The last 9 rows once more:

SMILES	strain	mutations	read by	setting	value
CCC(C)[C@H](NC(=O)[C@H](C(C)C)[C@@H](O)[C@H](O)[C@H](CC1CCCCC1)NC(=O)c1ccccc1OCSc1ccccc1)C(=O)NCc1nc2ccccc2[nH]1	D34		p24		<0.001 µM
CC(C)(C)NC(=O)[C@@H]1CN(Cc2cccnc2)CCN1C[C@@H](O)C[C@@H](Cc1ccccc1)C(=O)N[C@H]1c2ccccc2C[C@H]1O	BaL		p24		0.011 µM
CC(C)c1nc(CN(C)C(=O)N[C@H](C(=O)N[C@@H](Cc2ccccc2)C[C@H](O)[C@H](Cc2ccccc2)NC(=O)OCc2cncs2)C(C)C)cs1	Clinical isolate	PR-L10R N37D M46I I62V L63P A71V G73S V77I V82T L90M I93L	p24		>1 µM
Nc1nc2c(ncn2[C@H]2OC[C@@](F)(C=CP(=O)(O)O)[C@H]2F)c(=O)[nH]1	LAI		MTT		68 µM
O=C1Nc2ccc(Cl)cc2[C@@](C#CC2CC2)(C(F)(F)F)O1	BaL		p24		0.00004 µM
Nc1nc(=O)n([C@@H]2CS[C@H](CO)O2)cc1F	3TC-resistant (RT M184V) Clinical isolate	RT-M184V	p24		0.5 µM
Oc1ccc(/C=C/c2cc(O)cc(O)c2)cc1	EJC-X2		p24	clinical isolate	>10 µM
CCC[C@@]1(CCc2ccccc2)CC(O)=C([C@H](CC)c2cccc(NS(=O)(=O)c3ccc(C(F)(F)F)cn3)c2)C(=O)O1	Isolate 301-1X ritonavir-susceptible	Ritonavir-resistant protease	p24		0.075 µM
Cc1cn([C@H]2C[C@H](N=[N+]=[N-])[C@@H](CO)O2)c(=O)[nH]c1=O			p24 / RT activity		0.0041 µM